# Data as given in PubChem BioAssay AID504761 (Drosophila RNAi Screening Center, 2011).
# Aim: 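Insect host genes that dengue virus relies on to spread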 (primary screen)
# System: D.Mel-2 cells from Drosophila
# Reagents: long dsRNA against Drosophila genes
# Treatment: infection with dengue virus type 2; dose and infection time not stated
# Read-out: 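Cells stained for dengue envelope protein and imaged; percent of infected cells per well on duplicate plates, ranked by infection, with stained nuclei counted for cell number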
# Scale: infection score: higher = more virus-infected cells; cell count: higher = more cells in the well
# Call rule: 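Low infection ranks in the two replicates (chance level up to 0.065) followed by a retest with a 1.5-fold or larger significant decrease, p below 0.05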
# Calls: active = confirmed: knock-down lowers infection; inactive = not picked or not confirmed
# The screen tested about 22,000 reagents; this is an unselected part of those with a known target gene and a result. Of all reagents, 116 (0.52%) got an active call. 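Calls depend on retest data that are not deposited; infection was ranked per plate without normalising between plates; the unit of the infection score is not given.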 Raw values vary from plate to plate and are shown uncorrected. Not given: the amount of reagent, the time to read-out.
predicted target,dsRNA,"infection score, replicate 1","infection score, replicate 2","cell count, replicate 1","cell count, replicate 2",activity call
CHES-1-like (Checkpoint suppressor 1-like),DRSC18447,0.6,20.8,504,4842,inactive
Damm (Death associated molecule related to Mch2 caspase),DRSC07393,10.8,11.7,6266,6551,inactive
CG13675,DRSC23124,1.41,2.72,6468,7013,inactive
Rpn11 (Regulatory particle non-ATPase 11),DRSC03422,1.7,1.52,1352,1518,inactive
kcc (kazachoc),DRSC04316,53.9,42.7,5119,4300,inactive
kcc (kazachoc),DRSC04516,23,15.4,6542,6311,inactive
Tg (Transglutaminase),DRSC03047,4.2,6.44,5792,6627,inactive
Tg (Transglutaminase),DRSC29048,19.6,13.1,2201,4912,inactive
vri (vrille),DRSC23174,4.44,14.5,5611,5835,inactive
vri (vrille),DRSC26054,3.92,2.41,6024,6179,inactive
Ddx1 (Dead-box-1),DRSC11862,5.92,6.65,5640,7114,inactive
CG4281,DRSC18521,12.2,3.68,6114,6223,inactive
CG4281,DRSC28415,13.7,5.49,4746,5119,inactive
CG42367,DRSC21388,3.48,1.64,6009,6717,inactive
CG42367,DRSC24728,3.01,5.97,6137,6210,inactive
CG2519,DRSC12312,3.22,16.5,6739,6631,inactive
"AGBE (1,4-Alpha-Glucan Branching Enzyme)",DRSC06861,10.8,1.56,6150,6105,inactive
"AGBE (1,4-Alpha-Glucan Branching Enzyme)",DRSC27652,13.9,24.8,6507,5556,inactive
Gr58b (Gustatory receptor 58b),DRSC04140,2.9,7.07,7447,7152,inactive

Next part, starting with the last 3 of the part before.
predicted target,dsRNA,"infection score, replicate 1","infection score, replicate 2","cell count, replicate 1","cell count, replicate 2",activity call
"AGBE (1,4-Alpha-Glucan Branching Enzyme)",DRSC06861,10.8,1.56,6150,6105,inactive
"AGBE (1,4-Alpha-Glucan Branching Enzyme)",DRSC27652,13.9,24.8,6507,5556,inactive
Gr58b (Gustatory receptor 58b),DRSC04140,2.9,7.07,7447,7152,inactive
phyl (phyllopod),DRSC07663,2.44,2.16,6553,6772,active
phyl (phyllopod),DRSC24829,4.71,9.98,5732,6432,inactive
CG14500,DRSC06471,5.05,7.68,2656,6676,inactive
CG9948,DRSC11104,12.8,10.2,6115,6299,inactive
Cipc (Clock interacting protein circadian),DRSC14898,3.06,0.98,6608,6214,inactive
Cipc (Clock interacting protein circadian),DRSC14900,4.69,3.34,6721,958,inactive
ouib (ouija board),DRSC14376,1.87,12,6096,5627,inactive
CG10912,DRSC06009,4.44,6.61,6301,6123,inactive
CG10912,DRSC25420,1.49,6.31,6117,6050,inactive
IleRS (Isoleucyl-tRNA synthetase),DRSC11667,2.45,6.73,6370,6215,inactive
ppk15 (pickpocket 15),DRSC14733,14.5,,3383,325,inactive
ppk15 (pickpocket 15),DRSC27947,11.4,12.1,6200,6353,inactive
CG15528,DRSC15065,4.52,3.47,6702,7069,inactive
CG13376,DRSC17901,15.7,9.1,5535,5737,inactive
vilya,DRSC18588,,4.52,419,6504,inactive
Cmtr1 (Cap methyltransferase 1),DRSC18400,1.81,2.37,6674,6409,inactive
Cmtr1 (Cap methyltransferase 1),DRSC27812,18.4,6.59,5666,6522,inactive
CG6462,DRSC10641,0.7,6.56,6590,5880,inactive
CG6462,DRSC24608,6.83,5.3,5564,2339,inactive
CG31054 (retired record),DRSC22134,2.43,15.7,6369,6593,inactive
